Taken from: PubChem BioAssay AID1224833 (University of Georgia, 2016)
The whole screen tested about 12,000 reagents; shown is a part drawn at random. In the full data, about 5,600 (46%) are marked active. 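Active calls cover z-scores past 1 in both directions, so they include lowered as well as raised rotavirus replication.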

- Purpose: 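Host factors restraining rotavirus as candidate antiviral genes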 (primary screen)
- Cell system: monkey MA104 kidney cells
- Knock-down reagent: siRNA pool against human genes, 50 nM
- Duration: 48 h knock-down before infection; read 24 h after infection
- Treatment: infection with rotavirus strain RV3 two days after transfection; infectious dose for this stage not given
- Detection: 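z-score of rotavirus antigen signal per well, from a fluorescent immunoassay, relative to non-targeting control wells on the same plate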
- Reading the numbers: z-score vs non-targeting control: higher = more rotavirus replication than with non-targeting control
- Call rule: In these data the active calls have z-score vs non-targeting control at about -1 or lower, or at about 1 or higher
- Calls: active = z-score beyond 1 either way; inactive = z-score within 1 of zero

Target gene	z-score vs non-targeting control	Outcome
MYBPC1 (myosin binding protein C1)	1.85	active
COL10A1 (collagen type X alpha 1 chain)	-0.299	inactive
OR8G1 (olfactory receptor family 8 subfamily G member 1)	-0.359	inactive
TLR6 (toll like receptor 6)	0.101	inactive
FZD4 (frizzled class receptor 4)	-0.524	inactive
IFNB1 (interferon beta 1)	-1.01	active
GRIP1 (glutamate receptor interacting protein 1)	-0.718	inactive
ZNF497 (zinc finger protein 497)	-0.191	inactive
SAG (S-antigen visual arrestin)	1.51	active
GGA2	-0.694	inactive
MAGOH (mago homolog, exon junction complex subunit)	0.351	inactive
MORN1 (MORN repeat containing 1)	0.863	inactive
SUFU (SUFU negative regulator of hedgehog signaling)	-0.701	inactive
ZNF649 (zinc finger protein 649)	-2.57	active
CSPG5 (chondroitin sulfate proteoglycan 5)	0.843	inactive
GLI4 (GLI family zinc finger 4)	-1.06	active
DEFB118 (defensin beta 118)	-4.05	active
CCDC88C (coiled-coil and HOOK domain protein 88C)	-0.0759	inactive
RCAN3 (regulator of calcineurin 3)	-1.68	active
CTNNBL1 (catenin beta like 1)	0.605	inactive
L1TD1 (LINE1 type transposase domain containing 1)	1.35	active
PKIG (cAMP-dependent protein kinase inhibitor gamma)	-1.02	active
TMEM41B (transmembrane protein 41B)	-0.391	inactive
TDRD5 (tudor domain containing 5)	-1.41	active
COQ9 (coenzyme Q9)	3.08	active
ELAVL3 (ELAV like RNA binding protein 3)	0.751	inactive
ABCC1	-1.68	active
RGS20 (regulator of G protein signaling 20)	2.24	active
DCD (dermcidin)	0.251	inactive
FLI1 (Fli-1 proto-oncogene, ETS transcription factor)	2.93	active
NUP58 (nucleoporin 58)	1.33	active
DIRAS3 (DIRAS family GTPase 3)	-1.3	active
XPO4 (exportin 4)	-1.27	active
WDFY2 (WD repeat and FYVE domain containing 2)	-0.275	inactive
ZNF503 (zinc finger protein 503)	0.816	inactive
GALE (UDP-galactose-4-epimerase)	-0.847	inactive
GTPBP2 (GTP binding protein 2)	0.737	inactive
SULT1C3 (sulfotransferase family 1C member 3)	-1.14	active
CLPTM1L (CLPTM1 like)	0.0105	inactive
MYT1 (myelin transcription factor 1)	-1.61	active
DEFB116 (defensin beta 116)	-1.73	active
ABCC4 (ATP binding cassette subfamily C member 4 (PEL blood group))	0.885	inactive
RNASEH2C (ribonuclease H2 subunit C)	-2.56	active
CNBP (CCHC-type zinc finger nucleic acid binding protein)	0.645	inactive
YAE1 (YAE1 maturation factor of ABCE1)	2.12	active
FAM32A (family with sequence similarity 32 member A)	1.04	active
CAPN9 (calpain 9)	0.64	inactive
VPS13D (vacuolar protein sorting 13 homolog D)	-0.348	inactive
ADM2 (adrenomedullin 2)	-0.382	inactive
STRAP (serine/threonine kinase receptor associated protein)	-2.33	active
HIVEP2 (HIVEP zinc finger 2)	-1.42	active
RAB9A (RAB9A, member RAS oncogene family)	-0.921	inactive
GLG1 (golgi glycoprotein 1)	0.131	inactive
TEAD2 (TEA domain transcription factor 2)	-0.073	inactive
SCIN (scinderin)	-0.43	inactive
CRYL1 (crystallin lambda 1)	2.78	active
TLDC2 (TBC/LysM-associated domain containing 2)	-1.02	active
ATP7A (ATPase copper transporting alpha)	-0.503	inactive
CYP3A7 (cytochrome P450 family 3 subfamily A member 7)	-0.147	inactive
CHST4 (carbohydrate sulfotransferase 4)	-2.43	active
FXR1 (FMR1 autosomal homolog 1)	1	inactive
MATN2 (matrilin 2)	-1.07	active
TMC5 (transmembrane channel like 5)	-0.411	inactive
ZNF555 (zinc finger protein 555)	1.24	active
SLC26A9	-0.742	inactive
FHIP2A (FHF complex subunit HOOK interacting protein 2A)	1.47	active
KRTDAP (keratinocyte differentiation associated protein)	-0.0737	inactive
OR10X1 (olfactory receptor family 10 subfamily X member 1)	-0.407	inactive
TUBGCP5 (tubulin gamma complex component 5)	-0.415	inactive
PRRC2C (proline rich coiled-coil 2C)	-0.0497	inactive
H3C2 (H3 clustered histone 2)	1.06	active
ZNF583 (zinc finger protein 583)	1.07	active
SIX4 (SIX homeobox 4)	-2.09	active
CDC5L (cell division cycle 5 like)	-0.537	inactive
METTL27 (methyltransferase like 27)	0.988	inactive
ATP5MJ (ATP synthase membrane subunit j)	0.534	inactive
CCDC82 (coiled-coil domain containing 82)	-2.24	active
PROK2 (prokineticin 2)	1.11	active
DMBX1 (diencephalon/mesencephalon homeobox 1)	0.804	inactive
CST4 (cystatin S)	-1.16	active
FUT9 (fucosyltransferase 9)	-0.678	inactive
CCDC3 (coiled-coil domain containing 3)	-1.08	active
UBQLN4 (ubiquilin 4)	0.251	inactive
GRHPR (glyoxylate and hydroxypyruvate reductase)	1.46	active
POFUT4 (protein O-fucosyltransferase 4)	-0.276	inactive
SLC71A2	1.63	active
ADIPOQ (adiponectin, C1Q and collagen domain containing)	0.366	inactive
RECK (reversion inducing cysteine rich protein with kazal motifs)	0.776	inactive
RMI1 (RecQ mediated genome instability 1)	-0.482	inactive
DDX54 (DEAD-box helicase 54)	-0.804	inactive
OR5K1 (olfactory receptor family 5 subfamily K member 1)	-2.02	active
OR2C1 (olfactory receptor family 2 subfamily C member 1)	-0.544	inactive
UTP18 (UTP18 small subunit processome component)	1.41	active
ADSS1 (adenylosuccinate synthase 1)	-2.69	active
RUVBL2 (RuvB like AAA ATPase 2)	1.03	active
ERF (ETS2 repressor factor)	-0.85	inactive
CARMIL1 (capping protein regulator and myosin 1 linker 1)	-0.238	inactive
MACROH2A2 (macroH2A.2 histone)	-0.106	inactive
TTC16 (tetratricopeptide repeat domain 16)	0.796	inactive
PDCD7 (programmed cell death 7)	0.625	inactive
SSTR3 (somatostatin receptor 3)	1.8	active
APIP (APAF1 interacting protein)	1.6	active
TMEM132B (transmembrane protein 132B)	-1.11	active
B4GALT7 (beta-1,4-galactosyltransferase 7)	-0.647	inactive
MRPL3 (mitochondrial ribosomal protein L3)	-0.765	inactive
RUSC1 (RUN and SH3 domain containing 1)	-1.53	active
H4C14 (H4 clustered histone 14)	-2.51	active
PMAIP1 (phorbol-12-myristate-13-acetate-induced protein 1)	0.66	inactive
RABEP1 (rabaptin, RAB GTPase binding effector protein 1)	0.0246	inactive
SAPCD1 (suppressor APC domain containing 1)	-2.44	active
